Compound potency records, mixed from different reports. Data source: NIAID ChemDB in PubChem.

Shared fields: whole-cell or culture tests; agent: HIV-2; cells: CEM; measure: EC50

Blank or dashed fields: not listed here. Neighbouring rows are from separate reports. ECn is the concentration giving n% inhibition of infection, replication or growth.

smiles | strain or isolate | method | setting | value
Cc1cn([C@H]2C[C@H](N=[N+]=[N-])[C@@H](CO)O2)c(=O)[nH]c1=O | ROD | syncytia | - | 0.006 µM
Nc1nc(N)c(Cl)c(OCCOCP(=O)(O)O)n1 | ROD | syncytia | - | 1.3 µg/mL
Nc1nc2c(ncn2C2C=C[C@@H](CO)C2)c(=O)[nH]1 | ROD | - | - | 3 µM
Cc1cn([C@H]2C[C@H](N=[N+]=[N-])[C@@H](CN3C(=O)c4c(F)c(F)c(F)c(F)c4C3=O)O2)c(=O)[nH]c1=O | ROD | syncytia | - | 3.9 µM
Cc1cn([C@H]2C[C@H](N=[N+]=[N-])[C@@H](CO)O2)c(=O)[nH]c1=O | ST | cytopathic effect / XTT | - | 0.023 µg/mL
Nc1nc(Nc2cccc3ccccc23)c2ncn(CCOCP(=O)(O)O)c2n1 | ROD | cytopathic effect / MTT | - | 80 µg/mL
Cc1cn([C@H]2C[C@H](N=[N+]=[N-])[C@@H](COC(=O)c3cccnc3)O2)c(=O)[nH]c1=O | ROD | syncytia | - | 0.1 µg/mL
Nc1nc2c(ncn2C2CC=C[C@H]2CO)c(=O)[nH]1 | ROD | - | - | >100 µM
Cc1cn([C@@H]2O[C@@H](COC(=O)c3ccccc3)C3(OS(=O)(=O)C=C3N)C2O[Si](C)(C)C(C)(C)C)c(=O)[nH]c1=O | ROD | syncytia | - | >100 µg/mL
CC(C)NC(=O)c1cnnn1C1OC(CO[Si](C)(C)C(C)(C)C)C2(OS(=O)(=O)C=C2N)C1O[Si](C)(C)C(C)(C)C | ROD | cytopathic effect | - | >50 µM
CCNc1nc(N(C)C)nc2c1[nH]c[n+]2C[C@@H](C)OCP(=O)(O)O | ROD | cytopathic effect / MTT | - | 3.3 ± 1.1 µg/mL
Nc1cc(OCCOCP(=O)(O)O)nc(N)n1 | ROD | syncytia | - | 1.6 µM
CC(C)(C)[Si](C)(C)OCC1OC(n2nncc2C(=O)NC2CCCC2)C(O[Si](C)(C)C(C)(C)C)C12OS(=O)(=O)C=C2N | ROD | cytopathic effect | - | >50 µM
Cc1cn([C@H]2C=C[C@@H](CO)O2)c(=O)[nH]c1=O | ROD | MTT | - | 3.02 µM
Cc1cc(C=O)cc2c1OP(=O)(OC[C@@H]1C=C[C@H](n3cc(C)c(=O)[nH]c3=O)O1)OC2 | - | - | - | 0.39 µM
Nc1nc(N)c(Br)c(OCCOCP(=O)(O)O)n1 | ROD | syncytia | - | 3.2 µg/mL
CCc1c(S(=O)(=O)Cc2cccc3ccccc23)cc(C)oc1=O | ROD | MTT | - | >2 µM
Cc1cn([C@@H]2O[C@H](CO[Si](C)(C)C(C)(C)C)C3(OC(=O)N=C3N)[C@H]2O[Si](C)(C)C(C)(C)C)c(=O)[nH]c1=O | ROD | syncytia | - | >35 µM
C[C@H](Cn1cnc2c(N)ncnc21)OCP(=O)(O)O | ROD | syncytia | - | 1.4 µg/mL
Cc1cn([C@H]2C=C[C@@H](COP(=O)(O)N[C@@H](CC(=O)O)C(=O)O)O2)c(=O)[nH]c1=O | ROD | MTT | - | 6.55 µM
CC(=O)ON1COC[C@H]2O[C@@H](n3cc(C)c(=O)[nH]c3=O)C[C@@H]21 | ROD | syncytia | - | >50 µg/mL
Cc1cccc2c1OP(=O)(OC[C@@H]1C=C[C@H](n3cc(C)c(=O)[nH]c3=O)O1)OC2 | - | - | - | 0.07 µM
Cc1cn([C@@H]2O[C@H](CO[Si](C)(C)C(C)(C)C)C3(OC(=O)N(C)C3=N)[C@H]2O[Si](C)(C)C(C)(C)C)c(=O)n(C)c1=O | ROD | syncytia | - | >35 µM
Cc1cn([C@H]2C[C@H](N=[N+]=[N-])[C@@H](CN3C(=O)c4cccc([N+](=O)[O-])c4C3=O)O2)c(=O)[nH]c1=O | ROD | syncytia | - | 4.7 µM
Cc1cn([C@H]2C=C[C@@H](COP(=O)(O)O)O2)c(=O)[nH]c1=O | ROD | MTT | - | 1.64 µM
Cc1cn([C@H]2C=C[C@@H](CO)O2)c(=O)[nH]c1=O | ROD | - | - | 0.34 µM
Cc1cn([C@H]2C[C@H](N=[N+]=[N-])[C@@H](CN3C(=O)c4cc(Cl)c(Cl)cc4C3=O)O2)c(=O)[nH]c1=O | ROD | syncytia | - | 17 µM
Cc1cn([C@@H]2O[C@H](CO[Si](C)(C)C(C)(C)C)C3(OS(=O)(=O)C=C3N)[C@H]2O[Si](C)(C)C(C)(C)C)c(=O)n(CC(=O)N[C@@H](C)C(=O)OCc2ccccc2)c1=O | ROD | syncytia | - | >250 µM
Cc1cn([C@H]2C[C@H](N=[N+]=[N-])[C@@H](CN3C(=O)c4ccccc4C3=O)O2)c(=O)[nH]c1=O | ROD | syncytia | - | 1.7 µM
Cc1cn([C@@H]2O[C@H](CO[Si](C)(C)C(C)(C)C)C3(OS(=O)(=O)C=C3N)[C@H]2O[Si](C)(C)C(C)(C)C)c(=O)n(C)c1=O | ROD | cytopathic effect | - | >250 µM
Cc1cn([C@@H]2O[C@H](CO[Si](C)(C)C(C)(C)C)C3(OS(=O)(=O)C=C3N)[C@H]2O[Si](C)(C)C(C)(C)C)c(=O)n(CCOC(=O)[C@@H](N)C(C)C)c1=O | ROD | syncytia | - | >10 µM
COC(=O)[C@H](C)NP(=O)(OC[C@@H]1C=C[C@H](n2cc(C)c(=O)[nH]c2=O)O1)Oc1ccccc1 | ROD | syncytia | 4 d | 0.2 µM
C[C@H](CC1CNC2C(N)=NC(N)NC12)OCP(=O)(O)O | ROD | cytopathic effect / MTT | - | 50 µg/mL
Cc1ccnc2c1NC(=O)c1cccnc1N2C1CC1 | ROD | MTT | - | >10 µM
CC(=O)OC(OC(C)=O)c1cc(C)c2c(c1)COP(=O)(OC[C@@H]1C=C[C@H](n3cc(C)c(=O)[nH]c3=O)O1)O2 | - | - | - | 0.57 µM
Cc1cn([C@H]2C[C@H](N(C)O)[C@@H](CO)O2)c(=O)[nH]c1=O | ROD | syncytia | - | 5.3 µg/mL
Cc1cc(N[C@@H](C)c2cccc3ccccc23)c(C(=O)C(Cl)Cl)c(=O)o1 | ROD | MTT | - | >2 µM
Cc1cn([C@@H]2O[C@H](CC3CCCCC3)C3(OS(=O)(=O)C=C3N)[C@H]2O[Si](C)(C)C(C)(C)C)c(=O)[nH]c1=O | ROD | syncytia | - | >4 µg/mL
Nc1ccn([C@H]2CC[C@@H](CO)O2)c(=O)n1 | LAV-2 | virus yield | - | <0.001 µM
Cc1cn([C@H]2C[C@H](N=[N+]=[N-])[C@@H](CO)O2)c(=O)[nH]c1=O | ZY | cytopathic effect | - | 0.03 µM
C[C@H](Cn1cnc2c(N)ncnc21)OCP(=O)(O)O | ROD | syncytia | - | 0.61 µg/mL
NCC(O)c1ccc(O)c(O)c1 | ROD | syncytia | - | 13 µg/mL
CC[C@H](C)[C@H](NC(=O)c1ccccc1SSc1ccccc1C(=O)N[C@H](C(=O)O)[C@@H](C)CC)C(=O)O | - | p24 / RT activity | - | 6.4 µM
CC(C)(C)[Si](C)(C)OCC1OC(n2nncc2C(=O)NC2CCC2)C(O[Si](C)(C)C(C)(C)C)C12OS(=O)(=O)C=C2N | ROD | cytopathic effect | - | >250 µM
Nc1nc(N)c(Cl)c(OCCOCP(=O)(O)O)n1 | ROD | syncytia | - | 1.3 µg/mL
N#Cc1c(N)nc(N)nc1OCCOCP(=O)(O)O | ROD | syncytia | - | 1.3 µg/mL
Cc1cn([C@@H]2O[C@H](CC3CCCCC3)C3(OS(=O)(=O)C=C3N)[C@H]2OC(=O)c2ccccc2)c(=O)[nH]c1=O | ROD | syncytia | - | >4 µg/mL
CCNc1nc(N(C)C)nc2c1ncn2C[C@@H](C)OCP(=O)(O)O | ROD | cytopathic effect / MTT | - | >4 µg/mL
Cc1c(N)nc(N)nc1OCCOCP(=O)(O)O | ROD | syncytia | - | 0.23 µM
CC(C)(C)[Si](C)(C)OCC1OC(n2nncc2C(=O)N2CCC2)C(O[Si](C)(C)C(C)(C)C)C12OS(=O)(=O)C=C2N | ROD | cytopathic effect | - | >50 µM
Cc1cn([C@H]2C=C[C@@H](CO)O2)c(=O)[nH]c1=O | ROD | syncytia | - | 0.3 µM
COC(=O)c1cc(O)c(O)c(O)c1 | ROD | syncytia | - | 1.7 µg/mL
Cc1cn([C@H]2C=C[C@@H](COP3(=O)OCc4cc(C(C)(C)C)cc(C(C)(C)C)c4O3)O2)c(=O)[nH]c1=O | - | - | - | 2 µM
Nc1nc(N2CCOCC2)c2ncn(CCOCP(=O)(O)O)c2n1 | ROD | cytopathic effect / MTT | - | >20 µg/mL
COC(=O)[C@H](C)NP(=O)(OC[C@@H]1O[C@H](n2ccc(N)nc2=O)CS1)Oc1ccccc1 | ROD | syncytia | - | 3 µM
Cc1cc(=O)oc2cc(O)c(O)cc12 | ROD | syncytia | - | 2.5 µg/mL
Cc1cn([C@@H]2O[C@H](C)C3(OS(=O)(=O)C=C3N)[C@H]2O[Si](C)(C)C(C)(C)C)c(=O)[nH]c1=O | ROD | syncytia | - | >20 µg/mL

The last 5 rows once more:

smiles,strain or isolate,method,setting,value
Cc1cn([C@H]2C=C[C@@H](COP3(=O)OCc4cc(C(C)(C)C)cc(C(C)(C)C)c4O3)O2)c(=O)[nH]c1=O,-,-,-,2 µM
Nc1nc(N2CCOCC2)c2ncn(CCOCP(=O)(O)O)c2n1,ROD,cytopathic effect / MTT,-,>20 µg/mL
COC(=O)[C@H](C)NP(=O)(OC[C@@H]1O[C@H](n2ccc(N)nc2=O)CS1)Oc1ccccc1,ROD,syncytia,-,3 µM
Cc1cc(=O)oc2cc(O)c(O)cc12,ROD,syncytia,-,2.5 µg/mL
Cc1cn([C@@H]2O[C@H](C)C3(OS(=O)(=O)C=C3N)[C@H]2O[Si](C)(C)C(C)(C)C)c(=O)[nH]c1=O,ROD,syncytia,-,>20 µg/mL